Compound potency records, mixed from different reports. Data source: NIAID ChemDB in PubChem.

All rows: enzyme or target tests; organism: HIV-1; target: Reverse transcriptase; measure: inhibition

Neighbouring rows are from separate reports. Blank or dashed fields: not listed here. Inhibition is in % at the dose shown (toxicity tests: loss of growth or viability).

structure,dose,method,strain or isolate,value
COC(=O)N1c2ccccc2C=CC1C#N,50 µM,nucleotide incorporation,,36.8%
CCOC(=O)CN1C(=O)c2ccnnc2Oc2ccc(OC)cc21,33 µM,ELISA,,25%
COc1ccnc(NC(=O)CC(=O)Nc2ccc3ccccc3n2)c1,100 µM,RT activity / absorbance,,89.42%
CCNc1cccnc1N1CCN(CCc2cc(C)c(OC)c(C)c2)CC1,100 µM,nucleotide incorporation,,34%
O=S(=O)(O)OCC1OC2OC3C(COS(=O)(=O)O)OC(OC4C(COS(=O)(=O)O)OC(OC5C(COS(=O)(=O)O)OC(OC6C(COS(=O)(=O)O)OC(OC7C(COS(=O)(=O)O)OC(OC8C(COS(=O)(=O)O)OC(OC1C(OS(=O)(=O)O)C2OS(=O)(=O)O)C(OS(=O)(=O)O)C8OS(=O)(=O)O)C(OS(=O)(=O)O)C7OS(=O)(=O)O)C(OS(=O)(=O)O)C6OS(=O)(=O)O)C(OS(=O)(=O)O)C5OS(=O)(=O)O)C(OS(=O)(=O)O)C4OS(=O)(=O)O)C(OS(=O)(=O)O)C3OS(=O)(=O)O,25 µg/mL,,BRU,0%
O=C(CC(=O)Nc1ccc2ccccc2n1)Nc1ccc(F)cn1,100 µM,RT activity / absorbance,,62.26%
COc1c(O)cc2oc(-c3ccc(O)cc3)cc(=O)c2c1O,200 µg/mL,,,57.9%
CCN1C(=O)c2ccnnc2N(CC)c2ccc(C)cc21,33 µM,,,45%
C=C1C(=O)O[C@@H]2C[C@@H]3[C@]4(CC[C@]5(C)[C@@H]([C@H](C)CC/C=C(\C)C=O)CC[C@@]35C)C[C@]4(CCC(=O)O)[C@H]12,200 µg/mL,,,99.9%
Nc1ncnc2c1ncn2C1OC(COP(=O)(O)OC2CC(COP(=O)(O)OC3CC(CO)OC3n3cnc4c(N)ncnc43)OC2n2cnc3c(N)ncnc32)CC1O,10 µM,,IIIB,22%
CCc1cc(CCc2nc3ccccc3o2)c(=O)[nH]c1C,25 µM,radiometric,,30%
COc1c(C)c(O)c(C(C)=O)c(O)c1Cc1c(O)c(C(C)=O)c(O)c(C)c1OC,10 µg/mL,RT activity,,26%
CCN1C(=O)c2ccnnc2N(C2CC2)c2ccc(C)cc21,330 µM,,,50%
O=C(CC(=O)Nc1ccc2ccccc2n1)Nc1ccc(O)cn1,100 µM,RT activity / absorbance,,84.34%
O=c1[nH]c(SCc2cn[nH]n2)nc(-c2ccc(I)cc2)c1Cl,100 µg/mL,RT activity / absorbance,,90.5%
CC(C)OC(=O)N1c2ccccc2C=CC1C(N)=O,50 µM,nucleotide incorporation,,≤30%
CC(=O)Nc1ccc2[nH]c(C(=O)N3CCN(c4ncccc4NC(C)C)CC3)cc2c1,100 µM,nucleotide incorporation,,86%
O=S(=O)(O)c1ccc(-c2c3nc(c(-c4ccc(S(=O)(=O)O)cc4)c4ccc([nH]4)c(-c4ccc(S(=O)(=O)O)cc4)c4nc(c(-c5ccc(S(=O)(=O)O)cc5)c5ccc2[nH]5)C=C4)C=C3)cc1,6 µM,ELISA,,19%
Cc1cc(C)c2c(c1)N(CC1CC1)C(=O)c1ccnnc1O2,330 µM,ELISA,,80%
CCCN1C(=O)c2ccnnc2N(CCC)c2ccccc21,33 µM,,,32%
COc1ccc2c(c1)NC(=O)c1cc(Cl)nnc1O2,33 µM,ELISA,,23%
CC(C)Nc1cccnc1N(C)CCOC(=O)c1cc2ccccc2[nH]1,100 µM,nucleotide incorporation,,72%
CCCCN1C(=O)c2ccnnc2Oc2ccc(C)cc21,33 µM,ELISA,,16%
CCCCOC(=O)N1c2ccc(NC(C)=O)cc2C=CC1C#N,50 µM,nucleotide incorporation,,≤30%
Nc1ncnc2c1ncn2C1OC(COP(=O)(O)OC2CC(COP(=O)(O)OC3C(O)C(CO)OC3n3cnc4c(N)ncnc43)OC2n2cnc3c(N)ncnc32)CC1O,10 µM,,IIIB,19%
O=C(CC(=O)Nc1ccc2ccccc2n1)Nc1cc(C(F)(F)F)ccn1,100 µM,RT activity / absorbance,,64.2%
CCCN1C(=O)c2ccnnc2N(CCC)c2ccc(C)cc21,330 µM,,,24%
CC(C)Nc1ccnnc1N1CCN(C(=O)c2cc3cc(F)ccc3[nH]2)CC1,100 µM,nucleotide incorporation,,88%
COc1c(C)c(O)c(C)c(O)c1C(=O)/C=C/c1ccccc1,200 µg/mL,RT activity / nucleotide incorporation / radiometric,,67.5%
Cc1cccc2[nH]c(C(=O)N3CCN(c4ncccc4NC(C)C)CC3)cc12,100 µM,nucleotide incorporation,,66%
O=C1c2ccccc2-[n+]2ccc3c([nH]c4ccccc43)c21,1000 µg/mL,,,58%
CN1C(=O)c2cc(-n3ccnc3)nnc2N(C2CC2)c2ccccc21,330 µM,,,23%
C=C(C)C(O)Cc1c(O)c(Cc2c(O)c(C(C)=O)c(O)c(C)c2OC)c(O)c(C(C)=O)c1O,10 µg/mL,RT activity,,38%
CCN1C(=O)c2cc(Cl)nnc2Oc2ccc(C)cc21,33 µM,ELISA,,2%
C=C1C(=O)O[C@@H]2C[C@@H]3[C@]4(CC[C@]5(C)[C@@H]([C@H](C)CCC=C(C)C)CC[C@@]35C)C[C@]4(CCC(=O)OC)[C@H]12,200 µg/mL,,,9.9%
CCNc1cccnc1N1CCN(Cc2ccc(OC)cc2)CC1,100 µM,nucleotide incorporation,,40%
O=C(CC(=O)Nc1cc(=O)cc[nH]1)Nc1ccc2ccccc2n1,100 µM,RT activity / absorbance,,87.33%
Nc1ncnc2c1ncn2[C@@H]1O[C@H](COP(=O)([O-])O[C@@H]2C[C@@H](COP(=O)([O-])O[C@@H]3C[C@@H](COP(=O)([O-])O)O[C@H]3n3cnc4c(N)ncnc43)O[C@H]2n2cnc3c(N)ncnc32)[C@@H](O)[C@H]1O,10 µM,,IIIB,18%
COc1ccc2c(c1)C=CC(C#N)N2C(=O)OC(C)C,50 µM,nucleotide incorporation,,78.6%
Nc1ncnc2c1ncn2C1OC(COP(=O)(O)OC2C(O)C(COP(=O)(O)OC3C(O)C(CO)OC3n3cnc4c(N)ncnc43)OC2n2cnc3c(N)ncnc32)CC1O,10 µM,,IIIB,18%
CN1C(=O)c2ccnnc2N(C2CC2)c2ccccc21,33 µM,,,26%
Nc1ncnc2c1ncn2[C@@H]1O[C@H](COP(=O)([O-])O[C@@H]2C[C@@H](COP(=O)([O-])O[C@@H]3C[C@@H](COP(=O)([O-])O)O[C@H]3n3cnc4c(N)ncnc43)O[C@H]2n2cnc3c(N)ncnc32)C[C@H]1O,10 µM,,IIIB,28%
C[n+]1ccc(-c2c3nc(c(-c4cc[n+](C)cc4)c4ccc([nH]4)c(-c4cc[n+](C)cc4)c4nc(c(-c5cc[n+](C)cc5)c5ccc2[nH]5)C=C4)C=C3)cc1,6 µM,ELISA,,24%
O=C1Nc2ccccc2Oc2nnccc21,33 µM,ELISA,,14%
O=c1[nH]c(SCc2cn[nH]n2)nc(-c2ccccc2)c1Cl,100 µg/mL,RT activity / absorbance,,67.84%
Nc1ncnc2c1ncn2[C@@H]1O[C@H](COP(=O)(O)O[C@@H]2[C@H](O)[C@@H](COP(=O)(O)O[C@@H]3[C@H](O)[C@@H](CO)O[C@H]3n3cnc4c(N)ncnc43)O[C@H]2n2cnc3c(N)ncnc32)[C@@H](O)[C@H]1O,10 µM,,IIIB,18%
CCCOC(=O)N1c2ccc([N+](=O)[O-])cc2C=CC1C#N,50 µM,nucleotide incorporation,,81.8%

The last 3 rows once more:

structure | dose | method | strain or isolate | value
O=c1[nH]c(SCc2cn[nH]n2)nc(-c2ccccc2)c1Cl | 100 µg/mL | RT activity / absorbance |  | 67.84%
Nc1ncnc2c1ncn2[C@@H]1O[C@H](COP(=O)(O)O[C@@H]2[C@H](O)[C@@H](COP(=O)(O)O[C@@H]3[C@H](O)[C@@H](CO)O[C@H]3n3cnc4c(N)ncnc43)O[C@H]2n2cnc3c(N)ncnc32)[C@@H](O)[C@H]1O | 10 µM |  | IIIB | 18%
CCCOC(=O)N1c2ccc([N+](=O)[O-])cc2C=CC1C#N | 50 µM | nucleotide incorporation |  | 81.8%